Assay results as given in patent publication US20170275639A1 (ARIZONA BOARD OF REGENTS ON BEHALF OF ARIZONA STATE …, published 2017).

T1: WNV (strain New York 1999), infectious virus (West Nile virus, strain New York 1999, UniProt Q9Q6P4 291-791)
T1 sequence (looked up): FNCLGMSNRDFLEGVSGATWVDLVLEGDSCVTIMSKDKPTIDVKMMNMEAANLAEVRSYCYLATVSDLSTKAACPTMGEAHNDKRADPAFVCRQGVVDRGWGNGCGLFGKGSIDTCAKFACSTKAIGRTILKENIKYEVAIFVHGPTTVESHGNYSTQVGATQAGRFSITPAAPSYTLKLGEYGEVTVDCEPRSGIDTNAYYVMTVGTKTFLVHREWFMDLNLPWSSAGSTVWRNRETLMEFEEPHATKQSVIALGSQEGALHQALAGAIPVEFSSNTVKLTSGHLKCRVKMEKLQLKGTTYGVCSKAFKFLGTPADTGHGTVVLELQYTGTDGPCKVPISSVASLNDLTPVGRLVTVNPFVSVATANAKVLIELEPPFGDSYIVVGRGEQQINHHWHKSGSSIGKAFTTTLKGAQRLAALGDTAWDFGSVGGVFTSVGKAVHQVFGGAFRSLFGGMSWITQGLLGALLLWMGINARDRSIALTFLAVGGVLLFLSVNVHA


Biological target: T1, WNV (strain New York 1999), infectious …
Assay: cell-based or functional assay

| Binder | EC50, focus reduction neutralization assay (Vero cells) [ng/mL] |
| --- | --- |
| mHu-E16 (mammalian cell-produced Hu-E16) (antibody) chain 1: QVQLVQSGAEVKKPGASVKVSCKASGYTFTDYWIEWVRQAPGQGLEWMGDILCGTGRTRYNEKLKARVTMTADTSTSTAYMELRSLRSDDTAVYYCARSASYGDYADYWGQGTTVTVSSASTKGPSVFPLAPSSKSTSGGTAALGCLVKDYFPEPVTVSWNSGALTSGVHTFPAVLQSSGLYSLSSVVTVPSSSLGTQTYICNVNHKPSNTKVDKRV[skipping human IgG1 Fc] chain 2: DIVMTQSPDSLAVSLGERATINCKASQDVSTAVAWYQQKPGQPPKLLISWASTRHTGVPDRFSGSGSGTDFTLTISSLQAEDVAVYYCQQHYTTPLTFGQGTKLEIKRTVAAPSVFIFPPSDEQLKSGTASVVCLLNNFYPREAKVQWKVDNALQSGNSQESVTEQDSKDSTYSLSSTLTLSKADYEKHKVYACEVTHQGLSSPVTKSFNRGEC | 3.6 |
| pHu-E16 (plant-derived humanized anti-West Nile virus MAb E16, produced in wild-type N. benthamiana) (antibody, human IgG1, kappa) heavy: QVQLVQSGAEVKKPGASVKVSCKASGYTFTDYWIEWVRQAPGQGLEWMGDILCGTGRTRYNEKLKARVTMTADTSTSTAYMELRSLRSDDTAVYYCARSASYGDYADYWGQGTTVTVSSASTKGPSVFPLAPSSKSTSGGTAALGCLVKDYFPEPVTVSWNSGALTSGVHTFPAVLQSSGLYSLSSVVTVPSSSLGTQTYICNVNHKPSNTKVDKKV[skipping human IgG1 Fc] light: DIVMTQSPDSLAVSLGERATINCKASQDVSTAVAWYQQKPGQPPKLLISWASTRHTGVPDRFSGSGSGTDFTLTISSLQAEDVAVYYCQQHYTTPLTFGQGTKLEIKRTVAAPSVFIFPPSDEQLKSGTASVVCLLNNFYPREAKVQWKVDNALQSGNSQESVTEQDSKDSTYSLSSTLTLSKADYEKHKVYACEVTHQGLSSPVTKSFNRGEC | 3.7 |
